Pooled drug test results. Numbers come from NIAID ChemDB, via PubChem.

Shared fields: whole-cell or culture tests; species: HIV-1; cell line: MT-4; read-out: EC50

Conditions beyond the fields shown may differ between rows.

smiles,strain,changes,read by,value
N#Cc1ccc(Nc2nc(Oc3c(Cl)cccc3Cl)ncc2NC(=O)C(F)(F)F)cc1,RES056,,MTT,>190 µM
Nc1ncnc2c1ncn2[C@H]1C=C[C@@H](OCP(=O)(O)O)O1,,,cytopathic effect,1.5 µM
C=CCOCn1c(C(F)c2cccc(C#N)c2)c(CC)c(=O)[nH]c1=O,IIIB,EFV,MTT,>100 µM
O=C(CCCCCCCCCCC(=O)Nc1cc(S(=O)(=O)O)c2cccc(S(=O)(=O)O)c2c1)Nc1cc(S(=O)(=O)O)c2cccc(S(=O)(=O)O)c2c1,IIIB,,cytopathic effect / MTT,46 µM
N#Cc1ccc(Nc2nc(Oc3c(Cl)cc(Cl)cc3Cl)ncc2N)cc1,IIIB,,MTT,0.012 µM
CCc1c(Cc2cccc(Cc3nc(SC)[nH]c(=O)c3CC)c2)nc(SC)[nH]c1=O,,,cytopathic effect / MTT,>100 µM
CC(=O)Oc1cc(S(=O)(=O)O)cc2cc(S(=O)(=O)O)cc(OC(C)=O)c12,HE,,cytopathic effect / MTT,>500 µM
CCc1c(Cc2cccc(Cc3nc(SC(C)C)[nH]c(=O)c3CC)c2)nc(SC(C)C)[nH]c1=O,RT-K103N+Y181C NNRTI-resistant,RT-K103N Y181C,cytopathic effect / MTT,>36 µM
CNc1nc2c(N)ncnc2n1[C@H]1CC[C@@H](CO)C1,IIIB,,cytopathic effect,>10 µM
Cc1cc(C=O)cc(C)c1Oc1ncc([N+](=O)[O-])c(Nc2ccc(C#N)cc2)n1,RES056,,MTT,>37 µM
CCCCCCCCCCCCCCCC(=O)OC[C@H]1O[C@@H](n2cnc3c(N)ncnc32)[C@@H]1CO,,,antigen,<3 µg/mL
CC(C)(C)c1ccc(C(Cl)c2ccnc(Nc3ccc(C#N)cc3)n2)cc1,IIIB,K103N + Y181C,cytopathic effect,32.9 µM
CC(C)CN(C[C@@H](O)[C@H](Cc1cc(F)cc(F)c1)NC(=O)O[C@H]1CO[C@H]2OC[C@H](NC(C)C)[C@H]21)S(=O)(=O)c1ccc2nc(NC3CC3)sc2c1,NL4-3,,p24 / luminescence,0.00022 µM
CCc1c(C(=O)c2cccc(C#N)c2)n(Cc2cccc(C#N)c2)c(=O)[nH]c1=O,IIIB,K103N + Y181C,MTT,44 µM
Nc1ncnc2c1ncn2[C@H]1C[C@@H](CO)O1,,,antigen,<3 µg/mL
CCOCn1c(Cc2ccccc2)c(C(C)C)c(=O)[nH]c1=O,NNRTI-resistant,RT-Y181C,cytopathic effect / MTT,20 µM
Cc1ccc(S(=O)(=O)Nc2nnc(C(C)NS(=O)(=O)c3ccc(Cl)cc3)s2)cc1,IIIB,,MTT,>60.53 µM
CCCCSc1nc(C2(c3c(F)cccc3F)CC2)c(C)c(=O)[nH]1,NL4-3,,MTT,0.0105 µM
C[C@]1(CO)[C@H](Cn2cnc3c(=O)[nH]c(N)nc32)C1(F)F,RF,,,>100 µM
CC1(C)CC=C(c2cn(-c3nccc(C(=O)NC4CCC(N5CC6CCC(C5)O6)CC4)n3)c3ccc(F)c([C@H](OC(C)(C)C)C(=O)O)c23)CC1,NL4-3,V201I,luminescence,0.0051 µM
Cc1cc(C(Cl)c2ccc(C(C)(C)C)cc2)nc(Nc2ccc(C#N)cc2)n1,IIIB,K103N + Y181C,cytopathic effect,31.9 µM
CCOCn1c(Cc2ccccc2)c(-c2ccccc2)c(=O)[nH]c1=O,,,ELISA / antigen,7 µM
O=C(NCc1c(F)cc(F)cc1F)c1cn2c(c(O)c1=O)C(=O)N[C@H]1COCC[C@H]12,IIIB,,luminescence,0.0122 µM
CCOCn1c(C(=O)c2cccc(C#N)c2)c(CC)c(OC)nc1=O,IIIB,Y181C,MTT,>100 µM
COc1ccc(C(Cl)c2ccnc(Nc3ccc(C#N)cc3)n2)cc1,IIIB,K103N + Y181C,cytopathic effect,33.6 µM
Cc1cn([C@H]2C[C@H](N=[N+]=[N-])[C@@H](CO)O2)c(=O)[nH]c1=O,IIIB,,MTT,0.0085 µg/mL
COc1ccc(S(=O)(=O)N(C[C@@H](O)[C@H](Cc2ccccc2)NC(=O)[C@H](CC(N)=O)NC(=O)c2ccc3ccccc3n2)OC2CCCC2)cc1,IIIB,,cytopathic effect / propidium iodide,0.024 µM
[N-]=[N+]=N[C@H]1[C@H](n2cnc3c(N)ncnc32)O[C@@H]1CO,,,antigen,<100 µg/mL
CC(=O)Nc1cnc(Oc2c(C)cc(C=O)cc2C)nc1Nc1ccc(C#N)cc1,IIIB,,MTT,29 µM
Nc1ncnc2c1nc(I)n2[C@H]1CC[C@@H](CO)C1,IIIB,,cytopathic effect,>10 µM
N#Cc1ccc(Nc2nc(Oc3c(Br)cc(Br)cc3Br)ncc2[N+](=O)[O-])cc1,RES056,,MTT,>20 µM
CN(C)CCOc1c(Br)c(Br)c(Br)c2c1OC(C)(C)C2,,,cytopathic effect / MTT,>12.4 µM
CCc1c(Cc2cccc(Cc3nc(SC)nc(OC)c3CC)c2)nc(SC)nc1OC,NNRTI-resistant,RT-Y181C,cytopathic effect / MTT,>100 µM
CC1(C)Cc2c(Br)c(Br)c(Br)c(O)c2O1,,,cytopathic effect / MTT,>60 µM
Nc1ncnc2c1nc(Cl)n2[C@H]1CC[C@@H](CO)C1,IIIB,,cytopathic effect,>10 µM
CC(C)CC(NS(=O)(=O)c1ccc(Cl)cc1)c1nnc(NS(=O)(=O)c2ccc(Br)cc2)s1,IIIB,,MTT,>57.63 µM
Cc1c(C2(c3c(F)cccc3F)CC2)nc(SC(C)C)[nH]c1=O,NL4-3,,MTT,0.01 µM
Nc1ncnc2c1nc(Br)n2[C@H]1CC[C@@H](CO)C1,IIIB,,cytopathic effect,>10 µM
C=CCOCn1c(Cc2cccc(Cc3c(CC)c(=O)[nH]c(=O)n3COCC=C)c2)c(CC)c(=O)[nH]c1=O,RT-K103N+Y181C NNRTI-resistant,RT-K103N Y181C,cytopathic effect / MTT,>100 µM
COc1c(Cl)cc(C(=CCNC(=O)C[C@H]2CC[C@]3(C)C4CC[C@@]5(C)C(CC[C@@H]5CC(=O)NCC=C(c5cc(Cl)c(OC)c(C(=O)O)c5)c5cc(Cl)c(OC)c(C(=O)O)c5)C4CC[C@H]3C2)c2cc(Cl)c(OC)c(C(=O)O)c2)cc1C(=O)O,RF,,cytopathic effect / MTT,35 µM
CCc1c(Cc2cccc(Cc3[nH]c(=O)[nH]c(=O)c3CC)c2)[nH]c(=O)[nH]c1=O,NNRTI-resistant,RT-Y181C,cytopathic effect / MTT,>100 µM
COc1c(Cl)cc(C(=CCCCCN[C@H]2CC[C@]3(C)C4CC[C@@]5(C)C(CC[C@@H]5C(C)CCCC(C)C)C4CC[C@H]3C2)c2cc(Cl)c(OC)c(C(=O)O)c2)cc1C(=O)O,RF,,cytopathic effect / MTT,>316 µM
C[C@]1(Cn2cnc3c(=O)[nH]c(N)nc32)[C@H](COCP(=O)(O)O)C1(F)F,RF,,,90 µM
CC(C)CCC[C@@H](C)[C@H]1CC[C@H]2[C@@H]3CC[C@H]4C[C@@H](CCC=C(c5cc(Cl)c(OCc6ccc(C(=O)O)cc6)c(C(=O)O)c5)c5cc(Cl)c(OCc6ccc(C(=O)O)cc6)c(C(=O)O)c5)CC[C@]4(C)[C@H]3CC[C@]12C,IIIB,,cytopathic effect / MTT,1.4 µM
CC(C)(C)C(=O)OCOP(=O)(OCOC(=O)C(C)(C)C)OC[C@@H]1CC[C@H](n2ccc(=O)[nH]c2=O)O1,,,MTT,4.75 µM
CC(CNC(=S)Nc1nccs1)c1ccccc1,IIIB,,cytopathic effect / XTT,>10 µM
CCc1c(Cc2cccc(Cc3nc(SC)n(C)c(=O)c3CC)c2)nc(SC)nc1OC,,,cytopathic effect / MTT,>80 µM
CCCCCCC(C)[C@H]1CCC2C3CC[C@H]4C[C@@H](CCC=C(c5cc(Cl)c(O)c(C(=O)O)c5)c5cc(Cl)c(O)c(C(=O)O)c5)CC[C@]4(C)C3CC[C@@]21C,IIIB,,cytopathic effect / MTT,3 µM
Cc1cc(Nc2nc(N)c3cccc(-c4c(C)cc(/C=C/C#N)cc4C)c3n2)ncc1C#N,HXB2,K103N,cytopathic effect / luminescence,0.0303 µM
COc1c(Cl)cc(C(=CCCCCN(C(=O)C=C(c2cc(Cl)c(OC)c(C(=O)O)c2)c2cc(Cl)c(OC)c(C(=O)O)c2)[C@H]2CC[C@]3(C)C4CC[C@@]5(C)C(CC[C@@H]5C(C)CCCC(C)C)C4CC[C@H]3C2)c2cc(Cl)c(OC)c(C(=O)O)c2)cc1C(=O)O,RF,,cytopathic effect / MTT,6.9 µM
Nc1ccn([C@@H]2C[C@H](F)[C@H](CO)O2)c(=O)n1,IIIB,,,>100 µM
CC(C)CC(NS(=O)(=O)c1ccc(Cl)cc1)c1nnc(NS(=O)(=O)c2ccc(Cl)cc2)s1,IIIB,,MTT,>59.93 µM
CC(=O)Nc1cnc(Oc2c(C)cc(Br)cc2C)nc1Nc1ccc(C#N)cc1,IIIB,,MTT,32 µM
Nc1ccn([C@@H]2CS[C@H](CO)O2)c(=O)n1,IIIB,,MTT,0.51 µM
O=C(CCCCCCCCCCC(=O)Nc1cc(S(=O)(=O)O)cc2cc(S(=O)(=O)O)cc(O)c12)Nc1cc(S(=O)(=O)O)cc2cc(S(=O)(=O)O)cc(O)c12,IIIB,,MTT,42 µM

The first 7 rows once more:

smiles	strain	changes	read by	value
N#Cc1ccc(Nc2nc(Oc3c(Cl)cccc3Cl)ncc2NC(=O)C(F)(F)F)cc1	RES056		MTT	>190 µM
Nc1ncnc2c1ncn2[C@H]1C=C[C@@H](OCP(=O)(O)O)O1			cytopathic effect	1.5 µM
C=CCOCn1c(C(F)c2cccc(C#N)c2)c(CC)c(=O)[nH]c1=O	IIIB	EFV	MTT	>100 µM
O=C(CCCCCCCCCCC(=O)Nc1cc(S(=O)(=O)O)c2cccc(S(=O)(=O)O)c2c1)Nc1cc(S(=O)(=O)O)c2cccc(S(=O)(=O)O)c2c1	IIIB		cytopathic effect / MTT	46 µM
N#Cc1ccc(Nc2nc(Oc3c(Cl)cc(Cl)cc3Cl)ncc2N)cc1	IIIB		MTT	0.012 µM
CCc1c(Cc2cccc(Cc3nc(SC)[nH]c(=O)c3CC)c2)nc(SC)[nH]c1=O			cytopathic effect / MTT	>100 µM
CC(=O)Oc1cc(S(=O)(=O)O)cc2cc(S(=O)(=O)O)cc(OC(C)=O)c12	HE		cytopathic effect / MTT	>500 µM

ECn: concentration that inhibits the pathogen or its effect by n%. An empty or dashed field is not shown.